Literature values, collected in article PMC9321718 (Pharmaceuticals, 2022).
Where two headings read alike, the source gives them in different places.

Parameters: method as in doi:10.1016/j.foodres.2009.06.006
Conditions: cited from earlier work

C=CCc1ccc(O)c(OC)c1 [Eugenol, 4-allyl-2-methoxyphenol]
complexation constant (α and γ forms of CD): 10 to 100 M⁻¹
complexation constant (β-form of CD): 1000 M⁻¹
